{
  "source": "patent US20090297521A1",
  "target": "human CD33 (cell surface antigen, on U937, HL-60, THP-1, primary AML cells or transfected 293T cells) (human) (UniProt P20138)",
  "test": "cell-based or functional assay",
  "data": [
    {"substance": "CD33-ETA′ (recombinant anti-CD33 scFv-ETA′ immunotoxin, STREP-His-CD33-ETA-KDEL) (from UniProt P11439 277-633)", "values": [
      {"measurement": "% cell death, MNCs of AML patient 1 (M4, BM, ~50% CD33+)", "value": 20, "unit": "%"},
      {"measurement": "% cell death, MNCs of AML patient 2 (M1, PB, ~50% CD33+)", "value": 30, "unit": "%"},
      {"measurement": "% cell death, MNCs of AML patient 3 (M1, PB, ~65% CD33+)", "value": 9, "unit": "%"},
      {"measurement": "% cell death, MNCs of AML patient 4 (M4/M5, PB, ~70% CD33+)", "value": 9, "unit": "%"},
      {"measurement": "% cell death, MNCs of AML patient 5 (M6, BM, ~80% CD33+)", "value": 0, "unit": "%"},
      {"measurement": "% cell death, MNCs of AML patient 6 (M4, BM, ~80% CD33+)", "value": 6, "unit": "%"},
      {"measurement": "% cell death, MNCs of AML patient 10 (M4, BM, ~25% CD33+; GM-CSF, IL-3)", "value": 19, "unit": "%"},
      {"measurement": "dead U937 cells (Annexin V+, PI+) after 24 h, 100 ng/ml", "value": 18, "unit": "%"},
      {"measurement": "dead U937 cells (Annexin V+, PI+) after 48 h, 100 ng/ml", "value": 53, "unit": "%"},
      {"measurement": "dead U937 cells (Annexin V+, PI+) after 72 h, 100 ng/ml", "value": 84, "unit": "%"},
      {"measurement": "early apoptotic U937 cells (Annexin V+, PI-) after 24 h, 100 ng/ml", "value": 36, "unit": "%"},
      {"measurement": "early apoptotic U937 cells (Annexin V+, PI-) after 48 h, 100 ng/ml", "value": 17, "unit": "%"},
      {"measurement": "early apoptotic U937 cells (Annexin V+, PI-) after 72 h, 100 ng/ml", "value": 8, "unit": "%"}
    ]}
  ]
}
